Laboratory results reported in paper PMC6117091, “The C. difficile clnRAB operon initiates adaptations to the host environment in response to LL-37” (PLoS Pathogens, 2018).

System: C. difficile 630Δerm infection
Test: Hamster model of C. difficile infection, clindamycin effect
Conditions: 30, 45, or 60 mg/kg by oral gavage 7 days prior to inoculation with 1000 spores of 630Δerm

CCC[C@@H]1C[C@@H](C(=O)N[C@@H]([C@H]2O[C@H](SC)[C@H](O)[C@@H](O)[C@H]2O)[C@H](C)Cl)N(C)C1 [clindamycin]
time to morbidity (in words): No statistically significant differences in time to morbidity were observed
